Test results as given in ChEMBL document CHEMBL4043195, “Development of water-soluble 3,5-dinitrophenyl tetrazole and oxadiazole antitubercular agents” (Bioorg Med Chem, 2017).

How the values were obtained:
[1] = system: Mycobacterium tuberculosis; details: isolate 234/2005
[2] = system: Mycobacterium tuberculosis; details: isolate Praha 4

GENTAMICIN
MIC>99 [1]: 0.25 µM
MIC>99 [2]: 0.5 µM
